One may read the pKa as the negative logarithm of the acid dissociation constant. The low end stands for a stronger acid or weaker base, the high end for a weaker acid or stronger base.

The data set is described as follows: Ionization constant was determined.

`CC(=O)C1=CCCC2CCC1N2` (stereo unspecified) showed a pKa of 9.4.
